Experiments:
IgA = experiment: ELISA assay compatibility of preservatives: IgA detection; design: species or system human; settings: in SDJ; FIGS. 46, 48
IgM = experiment: ELISA assay compatibility of preservatives: IgM detection; design: species or system human; settings: in SDJ; FIGS. 47, 49

SMILES | effect on IgA detection by ELISA (IgA) | effect on IgM detection by ELISA (IgM)
O=C(O)CC(O)(CC(=O)O)C(=O)O [citric acid] | responsible for the IgA and IgM ELISA assay inhibition | responsible for the IgA and IgM ELISA assay inhibition
C/C=C/C=C/C(=O)O [sorbic acid] | responsible for the IgA and IgM ELISA assay inhibition | responsible for the IgA and IgM ELISA assay inhibition

From patent US10588608B2, “Sampling systems and related materials and methods” (Progenity Inc., priority 2016, dated 2020)
